## HIV-1 5' UTR: effect of mutations on RNA dimer formation

Sequence of the HIV-1 NL4-3 5' RNA, positions 1 to 437, as numbered in the source:
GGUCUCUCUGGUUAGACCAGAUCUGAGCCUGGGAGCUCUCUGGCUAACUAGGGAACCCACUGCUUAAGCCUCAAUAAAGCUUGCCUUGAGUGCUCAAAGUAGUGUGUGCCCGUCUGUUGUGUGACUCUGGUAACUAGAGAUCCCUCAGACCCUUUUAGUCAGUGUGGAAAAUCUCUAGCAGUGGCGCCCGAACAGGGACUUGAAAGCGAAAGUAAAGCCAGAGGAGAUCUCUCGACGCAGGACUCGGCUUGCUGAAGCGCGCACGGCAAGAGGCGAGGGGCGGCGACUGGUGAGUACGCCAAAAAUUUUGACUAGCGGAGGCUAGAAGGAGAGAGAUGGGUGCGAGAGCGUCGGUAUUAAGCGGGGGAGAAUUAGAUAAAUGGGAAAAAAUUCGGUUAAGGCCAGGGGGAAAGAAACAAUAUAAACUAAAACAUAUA

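Randomly mutated transcripts starting with one, two or three G (1G, 2G, 3G), capped or uncapped, were folded for 30 min at 37 °C. Monomer and dimer bands were cut from native gels after folding in high salt (300 mM KCl, 5 mM MgCl2) or low salt (40 mM KCl, 0.1 mM MgCl2). Kdimer compares mutation frequencies in monomer and dimer, corrected for sequencing errors.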

Values are log2 Kdimer, the median over the changes at each position: higher means that changes there hinder dimer formation, below 0 that they favour it.
One numbering serves 1G, 2G and 3G.
A position is written with its base where known.
The source gives no letters past position 437.

| # | position | domain | 2G uncapped high-salt | 3G capped low-salt | 1G uncapped high-salt | 2G uncapped low-salt |
|---|---|---|---|---|---|---|
| 1 | C44 | TAR | 0.15 | 0.02 | -0.06 | 0.02 |
| 2 | G53 | TAR | 0.07 | -0.12 | -0.03 | 0.09 |
| 3 | C57 | TAR | -0.08 | -0.81 | 0.07 | -0.42 |
| 4 | G68 | PolyA | 0.39 | -0.50 | 0.41 | 0.07 |
| 5 | U81 | PolyA | 0.03 | 0.37 | 0.01 | 0.38 |
| 6 | C85 | PolyA | -0.16 | -0.39 | -0.30 | -0.50 |
| 7 | U105 | U5 | -0.01 | 0.00 | 0.09 | 0.19 |
| 8 | U122 | none | 0.17 | 0.88 | 0.14 | 0.76 |
| 9 | G139 | PBS | 0.30 | 0.39 | 0.23 | 0.64 |
| 10 | U141 | PBS | 0.23 | 0.36 | 0.14 | 0.59 |
| 11 | A161 | PBS | 0.07 | 0.10 | 0.11 | -0.05 |
| 12 | A171 | PBS | 0.10 | 0.12 | 0.08 | 0.29 |
| 13 | A191 | PBS | 0.05 | -0.10 | 0.02 | -0.06 |
| 14 | C199 | PBS | 0.04 | -0.14 | 0.06 | -0.13 |
| 15 | G212 | PBS | -0.46 | -0.90 | -0.49 | -0.83 |
| 16 | G317 | SL3 | 0.13 | 0.20 | 0.20 | 0.16 |
| 17 | G325 | SL3 | 0.57 | 0.89 | 0.48 | 0.71 |
| 18 | U358 | none | -0.01 | -0.13 | 0.04 | -0.08 |
| 19 | U377 | none | 0.17 | 0.11 | -0.12 | -0.26 |
| 20 | A419 | none | 0.00 | 0.02 | 0.09 | -0.01 |
| 21 | U427 | none | 0.07 | -0.06 | 0.02 | 0.01 |
| 22 | A428 | none | 0.03 | -0.01 | 0.05 | 0.05 |
| 23 | A429 | none | 0.04 | -0.07 | 0.08 | 0.05 |
| 24 | 446 | none | 0.10 | 0.14 | 0.08 | 0.07 |
| 25 | 456 | none | 0.03 | 0.01 | 0.08 | -0.03 |
| 26 | 459 | none | 0.10 | 0.02 | 0.02 | 0.00 |
| 27 | 460 | none | 0.03 | 0.06 | 0.16 | 0.08 |
| 28 | 468 | none | -0.03 | -0.03 | 0.07 | -0.01 |
| 29 | 469 | none | 0.01 | 0.03 | 0.05 | -0.02 |
| 30 | 485 | none | -0.04 | 0.09 | 0.08 | -0.01 |
| 31 | 514 | none | -0.03 | 0.03 | -0.01 | -0.06 |

A selection of 2 entries from above:

position,domain,2G uncapped high-salt,3G capped low-salt,1G uncapped high-salt,2G uncapped low-salt
U377,none,0.17,0.11,-0.12,-0.26
G53,TAR,0.07,-0.12,-0.03,0.09

The measurements come from Ye et al. 2022 (doi:10.1038/s41594-022-00746-2).